Changes are numbered by the printed parent chain. Names may count otherwise.
B1: Glu/Asp BP T129C JPW4042 (conjugate, UniProt P37902 23-302, looked up, variant T129C)
Glutamate/aspartate import …: DDAAPAAGSTLDKIAKNGVIVVGHRESSVPFSYYDNQQKVVGYSQDYSNAIVEAVKKKLNKPDLQVKLIPITSQNRIPLLQNGTFDFECGSTTNNVERQKQAAFSDCIFVVGTRLLTKKGGDIKDFANLKDKAVVVTSGTTSEVLLNKLNEEQKMNMRIISAKDHGDSFRTLESGRAVAFMMDDALLAGERAKAKKPDNWEIVGKPQSQEAYGCMLRKDDPQFKKLMDDTIAQVQTSGEAEKWFDKWFKNPIPPKNLNMNFELSDEMKALFKEPNDKALN
modifications: JPW4042 label
B2: Glu/Asp BP T129C NBD (conjugate, UniProt P37902 23-302, looked up, variant T129C)
Glutamate/aspartate import …: B1 Glutamate/aspartate import …
modifications: NBD conjugate
B3: Glu/Asp BP T129C Acrylodan (conjugate, UniProt P37902 23-302, looked up, variant T129C)
Glutamate/aspartate import …: B1 Glutamate/aspartate import …
modifications: acrylodan conjugate
B4: Glu/Asp BP T129C Fluorescein (conjugate, UniProt P37902 23-302, looked up, variant T129C)
Glutamate/aspartate import …: B1 Glutamate/aspartate import …
modifications: fluorescein conjugate
B5: Glu/Asp BP T129C JPW4045 (conjugate, UniProt P37902 23-302, looked up, variant T129C)
Glutamate/aspartate import …: B1 Glutamate/aspartate import …
modifications: JPW4045 dye conjugate
B6: arabinose BP F23C Acrylodan (conjugate, UniProt P02924 24-329, looked up, variant F23C)
L-arabinose-binding …: ENLKLGFLVKQPEEPWFQTEWKCADKAGKDLGFEVIKIAVPDGEKTLNAIDSLAASGAKGFVICTPDPKLGSAIVAKARGYDMKVIAVDDQFVNAKGKPMDTVPLVMMAATKIGERQGQELYKEMQKRGWDVKESAVMAITANELDTARRRTTGSMDALKAAGFPEKQIYQVPTKSNDIPGAFDAANSMLVQHPEVKHWLIVGMNDSTVLGGVRATEGQGFKAADIIGIGINGVDAVSELSKAQATGFYGSLLPSPDVHGYKSSEMLYNWVAKDVEPPKFTEVTDVVLITRDNFKEELEKKGLGGK
modifications: acrylodan label
B7: arabinose BP F23C Fluorescein (conjugate, UniProt P02924 24-329, looked up, variant F23C)
L-arabinose-binding …: B6 L-arabinose-binding …
modifications: fluorescein label
B8: arabinose BP F23C NBD (conjugate, UniProt P02924 24-329, looked up, variant F23C)
L-arabinose-binding …: B6 L-arabinose-binding …
modifications: NBD label
B9: arabinose BP K301C JPW4039 (conjugate, UniProt P02924 24-329, looked up, variant K301C)
L-arabinose-binding …: B6 L-arabinose-binding … with C23F, K301C
modifications: JPW4039 label
B10: arabinose BP K301C NBD (conjugate, UniProt P02924 24-329, looked up, variant K301C)
L-arabinose-binding …: B6 L-arabinose-binding … with C23F, K301C
modifications: NBD label
B11: arabinose BP K301C Fluorescein (conjugate, UniProt P02924 24-329, looked up, variant K301C)
L-arabinose-binding …: B6 L-arabinose-binding … with C23F, K301C
modifications: fluorescein label
B12: arabinose BP K301C Acrylodan (conjugate, UniProt P02924 24-329, looked up, variant K301C)
L-arabinose-binding …: B6 L-arabinose-binding … with C23F, K301C
modifications: acrylodan label
B13: histidine BP E167C Acrylodan (conjugate, UniProt P0AEU0 23-260, looked up, variant E167C)
Histidine-binding periplasmic …: AIPQNIRIGTDPTYAPFESKNSQGELVGFDIDLAKELCKRINTQCTFVENPLDALIPSLKAKKIDAIMSSLSITEKRQQEIAFTDKLYAADSRLVVAKNSDIQPTVESLKGKRVGVLQGTTQETFGNEHWAPKGIEIVSYQGQDNIYSDLTAGRIDAAFQDEVAASCGFLKQPVGKDYKFGGPSVKDEKLFGVGTGMGLRKEDNELREALNKAFAEMRADGTYEKLAKKYFDFDVYGG
modifications: acrylodan conjugate
B14: histidine BP K229C Fluorescein (conjugate, UniProt P0AEU0 23-260, looked up, variant K229C)
Histidine-binding periplasmic …: B13 Histidine-binding periplasmic … with C167E, K229C
modifications: fluorescein label
B15: histidine BP E167C Fluorescein (conjugate, UniProt P0AEU0 23-260, looked up, variant E167C)
Histidine-binding periplasmic …: B13 Histidine-binding periplasmic …
modifications: fluorescein conjugate
B16: histidine BP K229C Acrylodan (conjugate, UniProt P0AEU0 23-260, looked up, variant K229C)
Histidine-binding periplasmic …: B13 Histidine-binding periplasmic … with C167E, K229C
modifications: acrylodan conjugate
B17: histidine BP V163C Acrylodan (conjugate, UniProt P0AEU0 23-260, looked up, variant V163C)
Histidine-binding periplasmic …: B13 Histidine-binding periplasmic … with V163C, C167E
modifications: acrylodan conjugate
B18: histidine BP K229C NBD (conjugate, UniProt P0AEU0 23-260, looked up, variant K229C)
Histidine-binding periplasmic …: B13 Histidine-binding periplasmic … with C167E, K229C
modifications: NBD label
B19: histidine BP V163C Fluorescein (conjugate, UniProt P0AEU0 23-260, looked up, variant V163C)
Histidine-binding periplasmic …: B13 Histidine-binding periplasmic … with V163C, C167E
modifications: fluorescein conjugate
B20: histidine BP E167C NBD (conjugate, UniProt P0AEU0 23-260, looked up, variant E167C)
Histidine-binding periplasmic …: B13 Histidine-binding periplasmic …
modifications: NBD dye conjugate
B21: histidine BP V163C JPW4042 (conjugate, UniProt P0AEU0 23-260, looked up, variant V163C)
Histidine-binding periplasmic …: B13 Histidine-binding periplasmic … with V163C, C167E
modifications: JPW4042 dye label

Sequences of proteins named here, by UniProt entry; tags and fusion partners are left off. A change or cut given only in a name is not applied to a line headed by its entry.
UniProt P02924: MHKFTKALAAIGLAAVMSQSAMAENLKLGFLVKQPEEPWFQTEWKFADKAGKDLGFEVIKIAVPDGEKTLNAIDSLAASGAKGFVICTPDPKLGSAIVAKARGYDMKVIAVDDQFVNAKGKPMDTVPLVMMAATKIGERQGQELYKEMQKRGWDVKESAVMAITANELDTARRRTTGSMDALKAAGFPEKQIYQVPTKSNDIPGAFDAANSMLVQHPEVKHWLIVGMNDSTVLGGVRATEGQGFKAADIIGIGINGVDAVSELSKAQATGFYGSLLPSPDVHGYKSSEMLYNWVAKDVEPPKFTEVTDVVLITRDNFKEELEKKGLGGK

Assay: Fluorescence emission spectra without and with saturating ligand (wavelength shift, ΔIstd, ΔRmax)
Settings: for λmax,apo (nm) / λmax,sat (nm): emission maximum; for λmax,apo (nm): absence of ligand; for λmax,sat (nm): saturating ligand (ligand column); for ΔIstd: standard intensity change; for ΔIstd / ΔRmax: unbound vs ligand-saturated; for ΔRmax: standard ratiometric change
Procedure: Fluorimetry. All measurements were conducted with an SLM Aminco-Bowman series 2 fluorimeter, with sample stirring at 25° C. Fluorescence emission spectra were acquired with excitation and emission slit widths of 4 and 8 nm, respectively. Photomultiplier tube potential was maintained between 400 and 800 volts. Protein concentrations were in the range of 50 to 1000 nM. Fluorophore-specific excitation was at the following approximate wavelengths: tryptophan, 290 nm; acrylodan, 390 nm; fluorescein, 485 nm; pyrene, 340 nm; NBD and NBDE, 490 nm; JPW4039, 485 nm; JPW4042, 470 nm; JPW4045, 470 nm.
Assessment of fluorescent biosensor function. Fluorescence emission spectra of bPBP-fluorophore conjugates were recorded in the absence and presence of saturating ligand concentrations. Spectral changes were characterized by four parameters: wavelength shift (the difference between the wavelengths of emission maximum in the unbound and ligand-saturated states), direction of intensity change (increase or decrease in intensity at the wavelengths of maximum emission in the two states), standard intensity change (ΔIstd), and standard ratiometric change (ΔR). ΔIstd is defined as the normalized intensity change relative to the average intensity, determined at the wavelength mid-point between the two emission maxima:
[formula] where λstd=(λmax, unbound+λmax, saturated)/2 and I1, I2 are the fluorescence intensities at λstd of each spectrum respectively (FIG. 4A). ΔR is defined in terms of two emission bands, A1 ([λ1, λ2]) and A2 ([λ3, λ4]) (FIG. 4B):
[formula] where ^∘A1, […] the areas in the absence of ligand, and ^∞A1, ^∞A2 the areas in the presence of saturating ligand. A computer program was used to enumerate ΔR for all possible pairs of wavelength bands in the two spectra, to identify the optimal sensing condition, defined as the maximum value of ΔR. Adjustable parameters of the algorithm, and their values used for ΔRmax quantities reported here, are: step size (2 nm), step width (10 nm), minimum integration area limit (fraction of total: 0.1), and maximum integration area limit (fraction of total: 1).

Molecule | λmax,apo (nm) | λmax,sat (nm) | ΔIstd | ΔRmax
B1 | 649 | 650 | 0.06 | 0.68
B2 | 537 | 538 | 0.09 | 0.15
B3 | 484 | 482 | 0.04 | 0.52
B4 | 523 | 523 | 0.02 | 0.17
B5 | 644 | 648 | 0.05 | 0.73
B6 | 503 | 503 | 0.02 | 0.99
B7 | 519 | 519 | 0.04 | 0.45
B8 | 543 | 548 | 0.38 | 0.76
B9 | 582 | 588 | 1.20 | 1.73
B10 | 532 | 538 | 0.08 | 3.15
B11 | 518 | 517 | 0.41 | 1.06
B12 | 486 | 486 | 0.10 | 1.19
B13 | 504 | 506 | 0.17 | 0.72
B14 | 517 | 516 | 0.03 | 0.05
B15 | 517 | 518 | 0.08 | 0.40
B16 | 526 | 527 | 0.02 | 0.41
B17 | 493 | 500 | 0.03 | 2.05
B18 | 532 | 536 | 0.12 | 0.31
B19 | 520 | 521 | 0.12 | 0.10
B20 | 539 | 541 | 0.05 | 0.42
B21 | 659 | 654 | 0.82 | 2.44

From patent US9625458B2, “Biosensor” (priority 2002, dated 2017)
